## Single amino acid changes in Zika NS2B-NS3 and viral growth

Reference: Ni et al. 2025, doi:10.1038/s41467-025-63602-z.

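Libraries of single mutants were passaged as virus pools on Huh-7.5 cells. The effect is the change in frequency of a mutant, normalised to wild type, as a mean of three replicate libraries (two for positions 207-308).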

Protein: NS2B and the protease part of NS3 of Zika virus strain MR766. Positions count along the chain below; NS2B spans 2-131 and NS3 starts at 132.
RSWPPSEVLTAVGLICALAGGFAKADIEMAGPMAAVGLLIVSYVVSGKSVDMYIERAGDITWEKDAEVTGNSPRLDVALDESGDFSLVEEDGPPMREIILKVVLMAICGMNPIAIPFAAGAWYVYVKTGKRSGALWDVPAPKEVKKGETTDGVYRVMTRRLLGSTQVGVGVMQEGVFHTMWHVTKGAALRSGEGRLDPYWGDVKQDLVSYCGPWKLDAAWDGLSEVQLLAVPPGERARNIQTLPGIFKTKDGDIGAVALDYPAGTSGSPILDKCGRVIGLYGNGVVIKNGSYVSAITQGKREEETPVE

Scale: log2 effect, wild type = 0; the lower, the more harmful to the virus.
Each entry names the wild-type residue, its position and the residue put in its place.
The authors count -1 or higher as tolerated. Position 1 is the last residue of NS2A.

{"substitution": "D26*", "effect (log2)": -6.62}
{"substitution": "D26A", "effect (log2)": -6.09}
{"substitution": "D26C", "effect (log2)": -5.48}
{"substitution": "D26E", "effect (log2)": -2.09}
{"substitution": "D26F", "effect (log2)": -5.43}
{"substitution": "D26G", "effect (log2)": -1.05}
{"substitution": "D26H", "effect (log2)": -2.57}
{"substitution": "D26I", "effect (log2)": -4.94}
{"substitution": "D26K", "effect (log2)": -3.09}
{"substitution": "D26L", "effect (log2)": -6.70}
{"substitution": "D26M", "effect (log2)": -4.79}
{"substitution": "D26N", "effect (log2)": -0.54}
{"substitution": "D26P", "effect (log2)": -2.39}
{"substitution": "D26Q", "effect (log2)": -2.08}
{"substitution": "D26R", "effect (log2)": -3.76}
{"substitution": "D26S", "effect (log2)": -0.36}
{"substitution": "D26T", "effect (log2)": -2.13}
{"substitution": "D26V", "effect (log2)": -6.30}
{"substitution": "D26W", "effect (log2)": -5.20}
{"substitution": "D26Y", "effect (log2)": -1.74}
{"substitution": "I27*", "effect (log2)": -7.13}
{"substitution": "I27A", "effect (log2)": -2.27}
{"substitution": "I27C", "effect (log2)": -1.55}
{"substitution": "I27D", "effect (log2)": -5.15}
{"substitution": "I27E", "effect (log2)": -5.43}
{"substitution": "I27F", "effect (log2)": -3.88}
{"substitution": "I27G", "effect (log2)": -4.80}
{"substitution": "I27H", "effect (log2)": -2.99}
{"substitution": "I27K", "effect (log2)": -3.90}
{"substitution": "I27L", "effect (log2)": -1.44}
{"substitution": "I27M", "effect (log2)": -1.15}
{"substitution": "I27N", "effect (log2)": -2.36}
{"substitution": "I27P", "effect (log2)": -5.86}
{"substitution": "I27Q", "effect (log2)": -3.07}
{"substitution": "I27R", "effect (log2)": -2.84}
{"substitution": "I27S", "effect (log2)": -3.15}
{"substitution": "I27T", "effect (log2)": -2.17}
{"substitution": "I27V", "effect (log2)": -1.05}
{"substitution": "I27W", "effect (log2)": -5.87}
{"substitution": "I27Y", "effect (log2)": -3.64}

Excerpt, the final 5 entries:

substitution,effect (log2)
I27S,-3.15
I27T,-2.17
I27V,-1.05
I27W,-5.87
I27Y,-3.64

Six mutants with high scores were retested singly and none clearly outgrew wild type, so positive values are not proof of better growth.
Positions 1-103, 104-206 and 207-308 were made and measured as separate libraries.
Stop codons (*) centre on -7 and mark the level of dead virus.